From patent US12630604B2, “Methods of making chimeric antigen receptor-expressing cells” (Novartis AG, priority 2018, dated 2026)

Tested on: T cells
Assay: T cell culture with cytokines after αCD3/αCD28 bead activation (expansion, size, viability)
Type: cell-based
Conditions: after TCR engagement
Experimental: Previously frozen T cells were thawed and contacted with αCD3/αCD28 dynal beads (cell to bead ratio of 1 to 3) in the presence of indicated cytokines at day 0. From day 3, twice more T cell growth media (RPMI1640, 10% FBS, 2 mM L-glutamin, 100 μM non-essential amino acids, 1 mM sodium pyruvate, 10 mM Hepes, 55 μM β-mercaptoethanol, 10% FBS, and 100 U/ml of penicillin-streptomycin) was added to the plate with indicated cytokines (without cytokine, rhIL2 (501 U/ml, Novartis), IL6 (10 ng/ml, R&D systems), IL7 (10 ng/ml, Peprotech), IL15 (10 ng/ml, Peprotech), and IL21 (10 ng/ml, Peprotech)) at day 3, 5, 6, 9, 12, 15, and 18. Cells treated without cytokine, IL6, or IL21 were cultured until day 18 and cells treated with IL2, IL7, or IL15 were cultured until day 25.

Substance: IL-2: cytokine, rhIL2
- cell size and viability: did not affect cell size and viability
